Measured values from several laboratories, pooled; numbers as filed in NIAID ChemDB.

Common to all: growth or infection tests; species: Influenza A virus; measure: EC50

Blank or dashed fields: not listed here. Conditions beyond the fields shown may differ between rows. ECn: concentration that inhibits the pathogen or its effect by n%. Two numbers with a dash give a range or band.

{"smiles": "Cc1cn([C@@H]2C[C@@H](O)[C@H](CO)O2)c(=O)[nH]c1=O", "cell line": "MDCK", "value": ">100 µM"}
{"smiles": "CC(C)CC1=N/C(=C\\c2ccc(F)cc2)C(=O)N(O)C1=O", "value": ">10 µM"}
{"smiles": "CC(=O)N[C@H]1[C@H]([C@H](O)[C@H](O)CO)OC(C(=O)O)=C[C@@H]1N=C(N)N", "cell line": "MDCK", "strain or isolate": "Influenza A/Mississippi/1/85 (H3N2)", "value": "0.014 µM"}
{"smiles": "C[C@@H]1CCC[C@@H]2C[C@@H](NC(=O)c3cc(C(C)(C)C)ccc3O)CCN21", "cell line": "MDBK", "strain or isolate": "H1N1 A/WSN/33", "read by": "plaque count", "value": ">20 µg/mL"}
{"smiles": "CC(N)C12CC3CC(CC(C3)C1)C2", "cell line": "MDCK", "strain or isolate": "Influenza A/Mississippi/1/85 (H3N2)", "read by": "plaque count", "value": "<0.27 µM"}
{"smiles": "NC(=O)c1ncn([C@@H]2O[C@H](CO)[C@@H](O)[C@H]2O)n1", "cell line": "MDCK", "strain or isolate": "H1N1 A/WSN", "value": "50 µM"}
{"smiles": "C[C@@H]1CCC[C@@H]2C[C@@H](NC(=O)c3cc(C(F)(F)F)ccc3O)CCN21", "cell line": "MDBK", "strain or isolate": "H1N1 A/WSN/33", "read by": "plaque count", "value": ">20 µg/mL"}
{"smiles": "C[C@@H](O)C1=C[C@@H](n2cnc3c(N)ncnc32)[C@H](O)[C@@H]1O", "cell line": "MDCK", "strain or isolate": "A/Bangkok/10/83 (H1N1)", "read by": "plaque count", "value": ">100 µg/mL"}
{"smiles": "NC12CC3CC(CC(C3)C1)C2", "cell line": "MDCK", "strain or isolate": "H1N1 FM/1/47", "read by": "plaque count", "value": "0.3 µg/mL"}
{"smiles": "Nc1ccn([C@@H]2C[C@@H](O)[C@H](CO)O2)c(=O)n1", "cell line": "MDCK", "value": ">100 µM"}
{"smiles": "COc1ccc(O)c(C(=O)N[C@H]2CCN3[C@H](CCC[C@H]3C)C2)c1", "cell line": "MDBK", "strain or isolate": "H1N1 A/WSN/33", "read by": "plaque count", "value": "0.6 µg/mL"}
{"smiles": "Nc1ccn([C@@H]2C[C@@H](O)[C@H](CO)O2)c(=O)n1", "cell line": "MDCK", "value": ">100 µM"}
{"smiles": "Nc1[nH]n2c(=O)cc(CN3CC[N+]4(CC3)CC[N+]3(CCN(Cc5cc(=O)n6[nH]c(N)c([N+](=O)[O-])c6n5)CC3)CC4)nc2c1[N+](=O)[O-]", "cell line": "MDCK", "read by": "cytopathic effect", "value": ">70 µg/mL"}
{"smiles": "N=C(N)c1ncn([C@@H]2O[C@H](CO)[C@@H](O)[C@H]2O)n1", "cell line": "MDCK", "strain or isolate": "Influenza A/Panama/2007/99 (H3N2)", "read by": "neutral red", "value": "16 µg/mL"}
{"smiles": "CC(C)/C=C1\\N=C(CC(C)C)C(=O)N(O)C1=O", "cell line": "MDCK", "value": "5.9 µM"}
{"smiles": "C[C@@H]1CCC[C@@H]2C[C@@H](NC(=O)c3ccc(N)cc3O)CCN21", "cell line": "MDBK", "strain or isolate": "H1N1 A/WSN/33", "read by": "plaque count", "value": ">20 µg/mL"}
{"smiles": "CC(=O)N[C@H]1[C@H]([C@H](O)[C@H](O)CO)OC(C(=O)O)=C[C@@H]1N", "cell line": "MDCK", "strain or isolate": "A/Brazil/11/78 (H1N1)", "read by": "plaque count", "value": "8.5 µM"}
{"smiles": "O=[N+]([O-])c1c(N2CCCC2)ncnc1N1CC[N+]2(CC1)CC[N+]1(CCN(c3ncnc(N4CCCC4)c3[N+](=O)[O-])CC1)CC2", "cell line": "MDCK", "read by": "cytopathic effect", "value": ">70 µg/mL"}
{"smiles": "Nc1ncnc2c1ncn2[C@@H]1C[C@@H](O)[C@H](CO)O1", "cell line": "MDCK", "value": ">100 µM"}
{"smiles": "Cc1nc(C2CCCCCC2)c([N+](=O)[O-])c(N2CC[N+]3(CC2)CC[N+]2(CCN(c4nc(C)nc(C5CCCCCC5)c4[N+](=O)[O-])CC2)CC3)n1", "cell line": "MDCK", "read by": "cytopathic effect", "value": ">70 µg/mL"}
{"smiles": "NC12CC3CC(CC(C3)C1)C2", "cell line": "MDCK", "strain or isolate": "H1N1 A/TEXAS/36/91", "read by": "neutral red / visual reading", "value": "3 µM"}
{"smiles": "Cc1ccc(O)c(C(=O)N[C@H]2CCN3[C@H](CCC[C@H]3C)C2)c1", "cell line": "MDBK", "strain or isolate": "H1N1 A/WSN/33", "read by": "plaque count", "value": "0.2–0.3 µg/mL"}
{"smiles": "C[N+]1(CC[N+]2(C)CCN(c3ncnc(Cl)c3[N+](=O)[O-])CC2)CCN(c2ncnc(Cl)c2[N+](=O)[O-])CC1", "cell line": "MDCK", "read by": "cytopathic effect", "value": ">70 µg/mL"}
{"smiles": "C[C@@H]1CCC[C@@H]2C[C@@H](NC(=O)c3cc4c(cc3O)C(C)(C)CCC4(C)C)CCN21", "cell line": "MDBK", "strain or isolate": "H1N1 A/WSN/33", "read by": "plaque count", "value": ">20 µg/mL"}
{"smiles": "Cc1nc(N2CC[N+]3(CC2)CC[N+]2(CCN(c4nc(C)nc5c4no[n+]5[O-])CC2)CC3)c2c(no[n+]2[O-])n1", "cell line": "MDCK", "read by": "cytopathic effect", "value": ">70 µg/mL"}

The first 3 rows once more:

smiles | cell line | strain or isolate | read by | value
Cc1cn([C@@H]2C[C@@H](O)[C@H](CO)O2)c(=O)[nH]c1=O | MDCK |  |  | >100 µM
CC(C)CC1=N/C(=C\c2ccc(F)cc2)C(=O)N(O)C1=O |  |  |  | >10 µM
CC(=O)N[C@H]1[C@H]([C@H](O)[C@H](O)CO)OC(C(=O)O)=C[C@@H]1N=C(N)N | MDCK | Influenza A/Mississippi/1/85 (H3N2) |  | 0.014 µM